Measured values from several laboratories, pooled; numbers as filed in NIAID ChemDB.

Shared fields: growth or infection tests; organism: Parainfluenza virus; read-out: EC50

ECn is the concentration giving n% inhibition of infection, replication or growth. Lines come from different laboratories, so protocols vary. Blank or dashed fields: not listed here. a–b is a range or a potency band.

| SMILES | strain | cell line | method | result |
|---|---|---|---|---|
| CCN1C[C@]2(COC)CC[C@H](O)[C@]34C1[C@@](O)([C@@H](OC)[C@H]23)[C@@]1(O)C[C@H](OC)C2C[C@@H]4[C@@H]1[C@H]2OC(C)=O | TYPE 3 | VERO | cytopathic effect | 1–32 µg/mL |
| NC(=O)c1ncn([C@@H]2O[C@H](CO)[C@@H](O)[C@H]2O)c1O | TYPE 3/C243 | VERO | plaque count | 10.7 µg/mL |
| C[C@@H](O)C1=C[C@@H](n2cnc3c(N)ncnc32)[C@H](O)[C@@H]1O | TYPE 2/CA GREER | VERO | plaque count | 0.47 µg/mL |
| [N-]=C=Nc1nncs1 | TYPE 3 | HEP-2 | cytopathic effect | 9.6 µg/mL |
| OC[C@H]1O[C@@H](n2cnc3cc(Cl)c(Cl)cc32)[C@@H](O)[C@H]1O | TYPE 3 | HeLa | cytopathic effect | >100 µg/mL |
| Nc1ncnc2c1ncn2C[C@@H](CO)OCP(=O)(O)O | TYPE 3 |  | cytopathic effect | >50 µM |
| Nc1nc2c(ncn2COCOCP(=O)(O)O)c(=O)[nH]1 | 14702 (TYPE 3) |  | cytopathic effect | 100 µg/mL |
| CC(=O)Oc1ccc([C@@H]2CC(=O)c3c(cc(OC(C)=O)c(-c4c(OC(C)=O)cc5c(c4OC(C)=O)C(=O)C[C@@H](c4ccc(OC(C)=O)cc4)O5)c3OC(C)=O)O2)cc1 | C243 (TYPE 3) | MA-104 | neutral red | >32 µg/mL |
| CC(C)[Si]1(C(C)C)OC[C@H]2O[C@@H](n3cnc4cc(Cl)c(Cl)cc43)[C@H](O)[C@H]2O[Si](C(C)C)(C(C)C)O1 | TYPE 3 | HeLa | cytopathic effect | >10 µg/mL |
| C/C=C1\[C@H](OC2O[C@H](CO)[C@@H](O)[C@H](O)[C@H]2O)OC=C(C(=O)O)[C@H]1CC(=O)OCC(OCC)c1ccc(O)c(O)c1 | TYPE 3 | HEP-2 | cytopathic effect | 20.8 µM |
| O[C@@H]1CC(n2cnc3cc(Cl)c(Cl)cc32)OC[C@@H]1O | TYPE 3 | HeLa | cytopathic effect | >150 µg/mL |
| Nc1ccn([C@@H]2C[C@@H](O)[C@H](CO)O2)c(=O)n1 | TYPE 3 | MA-104 |  | >100 µM |
| Nc1ncnc2c1ncn2[C@@H]1C[C@@H](O)[C@H](CO)O1 | TYPE 3 | MA-104 |  | >100 µM |
| Nc1cc(OC[C@H](CO)OCP(=O)(O)O)nc(N)n1 | TYPE 3 |  | cytopathic effect | >15 µM |
| OCCOC([C@H](O)CO)n1cnc2cc(Cl)c(Cl)cc21 | TYPE 3 | HeLa | cytopathic effect | >200 µg/mL |
| Nc1nc2c(ncn2[C@@H]2O[C@@H](CO)[C@H](O)[C@H]2O)c(=O)[nH]1 | TYPE 3 | VERO B | cytopathic effect | >1000 µM |
| CCN1C[C@]2(COC)CC[C@H](OC)[C@]34C5CC6[C@H](OC)C5[C@](O)(C[C@@H]6OC)[C@@](O)(C13)[C@@H](OC)[C@H]24 | TYPE 3 | VERO | cytopathic effect | 1–32 µg/mL |
| NC(=O)c1c[se]c([C@@H]2O[C@H](CO)[C@@H](O)[C@H]2O)n1 | TYPE 3/C243 | HeLa | cytopathic effect | 1 µg/mL |
| Cc1cn([C@H]2C[C@@H](O)[C@H](CO)O2)c(=O)[nH]c1=O | TYPE 3 | VERO B | cytopathic effect | >1000 µM |
| C[C@H](Cn1cnc2c(N)ncnc21)OCP(=O)(O)O | TYPE 3 |  | cytopathic effect | >525 µM |
| Nc1nccc2c1ncn2[C@@H]1C[C@H](CO)[C@@H](O)[C@H]1O | TYPE 3 | HEP-2 | cytopathic effect | 14 µg/mL |
| Nc1nc2c(ncn2[C@H]2C[C@@H](O)[C@H](CO)O2)c(=O)[nH]1 | TYPE 3 | VERO B | cytopathic effect | >1000 µM |
| OCCOC(CO)n1cnc2cc(Cl)c(Cl)cc21 | TYPE 3 | HeLa | cytopathic effect | >200 µg/mL |
| CCC1[C@H](OC2O[C@H](CO)[C@@H](O)[C@H](O)[C@H]2O)OC=C(C(=O)O)[C@H]1CC(=O)OCCc1ccc(O)cc1 | TYPE 3 | HEP-2 | cytopathic effect | 41.7 µM |
| NC12CC3CC(CC(C3)C1)C2 | ATCC VR-93 (TYPE 3) | HeLa | plaque count | 100 µg/mL |
| NC(=O)c1ncn([C@@H]2O[C@H](CO)[C@@H](O)[C@H]2O)c1C#CCCO | TYPE 3 | HeLa | cytopathic effect | 7 µg/mL |
| Nc1nccc2c1ncn2[C@@H]1O[C@H](CO)[C@@H](O)[C@H]1O | TYPE 3 | VERO | cytopathic effect | 2 µg/mL |
| C/C=C1\[C@H](OC2O[C@H](CO)[C@@H](O)[C@H](O)[C@H]2O)OC=C(C(=O)OC)[C@H]1CC(=O)OCC1O[C@H](OCCc2ccc(O)c(O)c2)[C@@H](O)[C@H](O)[C@H]1O | TYPE 3 | HEP-2 | cytopathic effect | 72.9 µM |
| COc1ccc(-c2cc(=O)c3c(OC)cc(OC)c([C@H]4C(=O)c5c(OC)cc(OC)cc5O[C@@H]4c4ccc(OC)cc4)c3o2)cc1 | C243 (TYPE 3) | MA-104 | cytopathic effect | >32 µg/mL |
| O=c1ccn([C@@H]2O[C@@H](CO)[C@H](O)[C@H]2O)c(=O)[nH]1 | TYPE 3 | VERO B | cytopathic effect | >1000 µM |

A second listing of 4 rows from above:

SMILES,strain,cell line,method,result
Nc1ccn([C@@H]2C[C@@H](O)[C@H](CO)O2)c(=O)n1,TYPE 3,MA-104,,>100 µM
O=c1ccn([C@@H]2O[C@@H](CO)[C@H](O)[C@H]2O)c(=O)[nH]1,TYPE 3,VERO B,cytopathic effect,>1000 µM
C[C@H](Cn1cnc2c(N)ncnc21)OCP(=O)(O)O,TYPE 3,,cytopathic effect,>525 µM
CCN1C[C@]2(COC)CC[C@H](O)[C@]34C1[C@@](O)([C@@H](OC)[C@H]23)[C@@]1(O)C[C@H](OC)C2C[C@@H]4[C@@H]1[C@H]2OC(C)=O,TYPE 3,VERO,cytopathic effect,1–32 µg/mL